According to PubChem BioAssay AID489010 (Southern Research Specialized Biocontainment Screening …, 2010):

Test system: M. tuberculosis H37Rv growth inhibition
Assay: M. tuberculosis H37Rv growth inhibition, dose response, strain H37Rv (AID 489010)
Settings: measured here: H37Rv growth IC50

SMILES: Cn1ncnc2c(=O)n(C)c(=O)nc1-2
- IC50: 1350 nM
